Experimental data as given in patent US10072106B2, “N-halamine melamine derivatives as novel decontamination and biocidal agents” (dated 2018).

Tests used:
[1] = system: Escherichia coli (ATCC 25922); assay: Biocidal efficacy sandwich test of melamine-halamine containing paint; details: 5% compound in paint
[2] = system: Staphylococcus aureus (ATCC 29213); assay: as above; details: 5% compound in paint

O=C(c1cc(C(=O)N(Cl)c2nc(N(Cl)Cl)nc(N(Cl)Cl)n2)cc(C(=O)N(Cl)c2nc(N(Cl)Cl)nc(N(Cl)Cl)n2)c1)N(Cl)c1nc(N(Cl)Cl)nc(N(Cl)Cl)n1
Log reduction ([1]; contact time 0 min): 0 log
Total Bacterial Concentration ([1]; contact time 0 min): 6.19 × 10^6 cfu/mL
Log reduction ([1]; contact time 30 min): 0.35 log
Total Bacterial Concentration ([1]; contact time 30 min): 2.75 × 10^6 cfu/mL
Log reduction ([1]; contact time 60 min): 1.36 log
Total Bacterial Concentration ([1]; contact time 60 min): 2.73 × 10^5 cfu/mL
Log reduction ([1]; contact time 120 min): 2.44 log
Total Bacterial Concentration ([1]; contact time 120 min): 2.25 × 10^4 cfu/mL
Log reduction ([2]; contact time 0 min): 0 log
Total Bacterial Concentration ([2]; contact time 0 min): 4.47 × 10^6 cfu/mL
Log reduction ([2]; contact time 30 min): 0.49 log
Total Bacterial Concentration ([2]; contact time 30 min): 1.53 × 10^6 cfu/mL
Log reduction ([2]; contact time 60 min): 0.28 log
Total Bacterial Concentration ([2]; contact time 60 min): 2.52 × 10^6 cfu/mL
Log reduction ([2]; contact time 120 min): 2.67 log
Total Bacterial Concentration ([2]; contact time 120 min): 1.02 × 10^4 cfu/mL
